Construct, isoform or probe ends are uncertain for at least one entry. Protein sequences can lack the tags named with them.
Molecular target: T1, 6H-SsrBc (UniProt Q7CQM5)
T1 sequence (looked up, limits assumed): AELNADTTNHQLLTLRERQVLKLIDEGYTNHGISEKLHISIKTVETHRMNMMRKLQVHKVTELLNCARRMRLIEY
Assay: EMSA
Conditions: 0-2 uM protein; recombinant protein; probe letters rebuilt from the primers and the genome

Sequence | binding result
CAAGGATCCCTAATAAAGAGCATTTACAACTCAGATTTTTTCAGTAGGATACCAGTAAGGAACATTAAAATAACATCAACAAAGGGATAATATGGAAAATGTAACCTTTGTAAGTAATAGTCATCAGCGTCCTGCCGCAGATAAGCTTCAG (double strand) [hilD -48+88] | binds
CAGAAGCTTTCAGCGCCGGGCATCTAAATATTTACATATTTAACTTGGCCTCATTGCAATAGAGATTAGTTTTGTAGCTATCTTACTGCATTTTTTTGGGGTGTAAATGCTGCTTATTATATCTTCATGGTTAATGGTCTGATAATTACACCATCAGAACCATTTTTCTCGAAGATTTCCACTAAATGACCATTCGTTGAAAGTTTAAGAGTGTAATTTGTCTTAGGTTCCAAAATATAAATGAAAGACTGTTTTTAATGGTGCGCTTATTTTTATATTTTTTTGCAAAATAATGATATCGTCTTTTCTTTACTCCCTTCAGTTATAGCGTCAAAAAGGCAGGAGGGTTATGAGCAGTATCATCCTCAGGCTGGCTCCAGGCATTATATCGATATCAGGAGGAAGAGAGGAGGTATGCCTGGCAGAAAGCTAACAAGCGTGACTGTTTCGGTATAAACCGTTCAGGCAAATAGTTCTCAGAGGGATCCGAT (double strand) [hilA -410+66] | binds
CTGAAGCTTATCTGCGGCAGGACGCTGATGACTATTACTTACAAAGGTTACATTTTCCATATTATCCCTTTGTTGATGTTATTTTAATGTTCCTTACTGGTATCCTACTGAAAAAATCTGAGTTGTAAATGCTCTTTATTAGCGTGTGTTGGCAATGGTCTGATTGTTACACCAAAAGAACCCAAATTTGGGTAATTTATCTGGATCCGTT (double strand) [hilD -108+88] | binds
TAGGGATCCTCTTCGAGAAAAATGGTTCTGATGGTGTAATTATCAGACCATTAACCATGAAGATATAATAAGCAGCATTTACACCCCAAAAAAATGCAGTAAGATAGCTACAAAAAAGCTTTCT (double strand) [hilA -100+6 WT] | binds
